Compound potency records, mixed from different reports. Data source: NIAID ChemDB in PubChem.

Shared fields: tests on isolated targets; organism: HIV-1; protein: Reverse transcriptase

ICn is the concentration giving n% inhibition. An empty or dashed field is not shown. Neighbouring rows are from separate reports.

structure,strain,endpoint,changes,read by,result
N#CC1C=Cc2ccccc2N1C(=O)c1ccc(Cl)cc1,,IC50,,nucleotide incorporation,<50 µM
CCOC(=O)C(=O)CC(=O)/C=C/c1cccn1Cc1ccccc1Cl,,IC50,Q475A,RNase H / radiometric,94 µM
CCN1c2ncccc2C(=O)N(C)c2ccc(-c3c[nH]c(C(C)=O)c3)nc21,,IC50,RT-Y188L,nucleotide incorporation / radiometric,>1 µM
O=S(=O)(c1ccccc1)c1c[nH]c2ccccc12,,IC50,WT,RT activity,48 µM
COc1cc2c(cc1OC)CN(c1nn3c(C)nnc3c3ccccc13)CC2,IIIB,IC90,,RT activity / fluorescence,0.94 µM
CN1C(=O)c2cccnc2N(C2CC2)c2nc(-c3cn[nH]c3)ccc21,,IC50,RT-Y188L,nucleotide incorporation / radiometric,<1 µM
Cc1ccc(S(=O)(=O)c2c(-c3ccc(Cl)cc3)[nH]c3ccccc23)cc1,,IC50,WT,RT activity,53 µM
CCOC(=O)c1cccn1S(=O)(=O)c1ccc2nc[nH]c2c1,,IC50,,nucleotide incorporation,3 µM
COc1c(C(=O)c2cnc3cc(=O)[nH]c(=O)n3c2)c(O)c(OC)c2occc12,,IC50,,scintillation proximity / radiometric,40.31 µM
Cc1ccc(S(=O)(=O)n2cc(-c3cccc([N+](=O)[O-])c3)c3ccccc32)cc1,,IC50,WT,RT activity,42 µM
O=C(O)CP(=O)(O)O,LAV,IC50,,,>500 µM
CC(C)=CCOc1cc(NC(=S)c2ccsc2C)ccc1Cl,,IC50,RT-L74V,,0.2 µM
Cc1cc(/C=C/c2cc3ccc(Cl)c(C)c3nc2Cl)c(C)s1,,IC50,,RT activity,0.25 µg/mL
Cc1ccc(S(=O)(=O)c2c(-c3ccccc3)[nH]c3ccccc23)cc1,,IC50,K103N,RT activity,46 µM
Cc1occc1C(=S)Nc1ccc(Cl)c(/C=N/OC(C)(C)C)c1,,IC50,RT-P236L,nucleotide incorporation / radiometric,15 µM
CCN1c2ncccc2C(=O)N(C)c2ccc(-c3cc[nH]c3C#N)nc21,WT,IC50,,nucleotide incorporation / radiometric,<1 µM
CCOC(=O)c1cccn1S(=O)(=O)c1ccc2n[nH]nc2c1,,IC50,,nucleotide incorporation,9 µM
Cc1cn([C@H]2CC[C@@H](COP(=O)(O)OP(=O)(O)OP(=O)(O)O)O2)c(=O)[nH]c1=O,,Ki,RT-K65R,nucleotide incorporation,>50 µM
CCN1c2ncccc2C(=O)N(C)c2ccc(-c3cccn3C)nc21,,IC50,RT-Y181C,nucleotide incorporation / radiometric,<1 µM
O=S(=O)(c1ccc2ccccc2c1)c1c[nH]c2ccccc12,,IC50,K103N,RT activity,76 µM
CCCN1c2ncccc2C(=O)N(C)c2ccc(-c3cn[nH]c3)nc21,,IC50,RT-Y188L,nucleotide incorporation / radiometric,<1 µM
[N-]=[N+]=N[C@H]1C[C@H](n2ccc(=O)[nH]c2=O)O[C@@H]1COP(=O)(O)OP(=O)(O)OP(=O)(O)O,,IC50,,,0.0098 µM
Cc1cc(O)c2c(c1)C(=O)c1cc(O)cc(O)c1C2=O,,IC50,,RNase H / radiometric,>100 µM
Cc1nnc2c3ccccc3c(N3CCc4ccc(C(=O)O)cc4C3)nn12,98US_MSC5016,IC90,,RT activity / fluorescence,71.6 µM
Cc1c(S(=O)(=O)c2ccccc2)[nH]c2ccccc12,,IC50,WT,RT activity,87 µM
O=C(O)c1cc(O)c2c(c1)[C@@H]([C@H]1c3cc(C(=O)O)cc(O)c3C(=O)c3c(O[C@@H]4O[C@H](CO)[C@@H](O)[C@H](O)[C@H]4O)cccc31)c1cccc(O[C@@H]3O[C@H](CO)[C@@H](O)[C@H](O)[C@H]3O)c1C2=O,,IC50,N474A,RNase H / radiometric,10.8 µM
Cc1cn([C@H]2C[C@H](F)C(COP(=O)([O-])OP(=O)([O-])OC[C@H]3O[C@@H](n4cc(C)c(=S)[nH]c4=O)C[C@@H]3F)O2)c(=O)[nH]c1=S,,IC50,,RT activity / ELISA,0.9 µM
O=S(=O)(c1ccc(Cl)cc1)c1c[nH]c2ccccc12,,IC50,K103N,RT activity,>100 µM
Nc1ccn([C@@H]2CS[C@H](COP(=O)(O)OP(=O)(O)OP(=O)(O)O)O2)c(=O)n1,,Ki,,nucleotide incorporation,0.05 µM
COC(=O)c1ccc2c(c1)CN(c1nn3c(C)nnc3c3ccccc13)CC2,98US_MSC5016,IC90,,RT activity / fluorescence,1.17 µM
Cc1c(Cl)ccc2cc(/C=C/C(=O)c3cccc(Br)c3)c(Cl)nc12,,IC50,,RT activity,0.21 µg/mL
CCN1c2ncccc2C(=O)N(C)c2ccc(-c3cnn(C)c3)nc21,WT,IC50,,nucleotide incorporation / radiometric,<1 µM
CC(=O)Nc1ccc2c(c1)CN(c1nn3c(C)nnc3c3ccccc13)CC2,IIIB,IC50,,RT activity / fluorescence,20.4 µM
Cc1csc(/C=C/c2cc3ccc(Cl)c(C)c3nc2Cl)c1,,IC50,,RT activity,0.19 µg/mL
Cc1occc1C(=S)Nc1ccc(Cl)c(C(=O)OCC2CC2)c1,,IC50,RT-L108I,nucleotide incorporation / radiometric,23 µM
CCN1c2ncccc2C(=O)N(C)c2ccc(-c3c[nH]c(C(=O)O)c3)nc21,WT,IC50,,nucleotide incorporation / radiometric,>1 µM
O=C(O)c1cn([C@@H]2O[C@H](CO)[C@@H](O)[C@H]2O)c2cc(Br)ccc2c1=O,,IC50,,,>100 µM
C=CCO/N=C/c1cc(NC(=S)c2ccoc2C)ccc1Cl,,IC50,,nucleotide incorporation / radiometric,6 µM
O=C(O)c1cn([C@@H]2O[C@H](CO)[C@@H](O)[C@H]2O)c2ccc(Br)cc2c1=O,,IC50,,,>100 µM
CC(C)=CCOc1cc(NC(=S)c2ccoc2C)ccc1Cl,,IC50,RT-V106A,,3.2 µM

For reference, 6 entries again:

structure | strain | endpoint | changes | read by | result
Cc1ccc(S(=O)(=O)c2c(-c3ccc(Cl)cc3)[nH]c3ccccc23)cc1 |  | IC50 | WT | RT activity | 53 µM
COC(=O)c1ccc2c(c1)CN(c1nn3c(C)nnc3c3ccccc13)CC2 | 98US_MSC5016 | IC90 |  | RT activity / fluorescence | 1.17 µM
CCN1c2ncccc2C(=O)N(C)c2ccc(-c3cnn(C)c3)nc21 | WT | IC50 |  | nucleotide incorporation / radiometric | <1 µM
Cc1ccc(S(=O)(=O)c2c(-c3ccccc3)[nH]c3ccccc23)cc1 |  | IC50 | K103N | RT activity | 46 µM
Cc1cn([C@H]2CC[C@@H](COP(=O)(O)OP(=O)(O)OP(=O)(O)O)O2)c(=O)[nH]c1=O |  | Ki | RT-K65R | nucleotide incorporation | >50 µM
CCN1c2ncccc2C(=O)N(C)c2ccc(-c3cc[nH]c3C#N)nc21 | WT | IC50 |  | nucleotide incorporation / radiometric | <1 µM